Test results as given in patent US11510899B2, “RTX toxin production inhibitor and composition for treating symptom of vibrio infection by using same” (priority 2018, dated 2022).

The chains behind the UniProt entries cited, without tags or fusion partners. Residues count along the entry.
UniProt A0A3Q0L222, 1-98: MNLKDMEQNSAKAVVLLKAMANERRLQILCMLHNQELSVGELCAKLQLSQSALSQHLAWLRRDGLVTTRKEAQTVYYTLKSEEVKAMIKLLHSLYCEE

How the values were obtained:
Vibrio vulnificus = assay: Growth of Vibrio vulnificus; format: cell-based; settings: derivative compounds in the reporter strain experiments
Method: (§1) While culturing at 30° C., the growth of the reporter strain and the degree of bioluminescence thereof were measured in the same manner as in Example 1, and the RLU was calculated. The RLU of the DMSO-treated control group was expressed as 100% HlyU activity. HlyU activity was plotted according to the concentration of the derivative compound, and EC50 (half maximal effective concentration) was calculated using GraphPad Prism 7.0 (GraphPad Software, San Diego, Calif.) (FIG. 6, Table 2).
Therefore, Vibrio vulnificus was treated with various concentrations of CM2660, and the growth of Vibrio vulnificus was observed (FIG. 20).

HlyU = HlyU (Vibrio vulnificus, UniProt A0A3Q0L222); assay: Vibrio reporter strain, pKK1305 (PrtxA-lux, activated by HlyU) in wild-type V. vulnificus; format: cell-based; settings: for EC50: HlyU activity (RLU, DMSO = 100%), 30° C.; for EC50 / HlyU inhibitory effect compared with CM2660 (in words): pKK1305 in wild-type V. vulnificus
Method: Meanwhile, verification experiments using the Vibrio reporter strain were also conducted so as to exclude false positive results. It was identified that the effect of the compound was not limited only to E. coli using Vibrio vulnificus, each having the reporter plasmid (pZW1608) inhibited by HlyU, which was used for the E. coli reporter strain, and the plasmid (pKK1305) in which the promoter of the rtxA gene activated by HlyU is cloned in front of the bioluminescence operon.
The constructed wild-type Vibrio reporter strain was treated with sample compounds and cultured at 30° C., and cell growth and luminescence were measured in the same manner as the E. coli strain screening (FIG. 3 and FIG. 4).
In order to identify whether or not a specific structure of CM2660 has a significant effect on HlyU inhibition, the effect of HlyU inhibition by the compound CM2660 and derivatives thereof, “Compound Group I” (FIG. 5) was verified. For the purpose, the pKK1305 plasmid prepared in Example 1 was conjugated to the wild-type Vibrio vulnificus, and the Vibrio reporter strain (pKK1305 in wild-type V. vulnificus) thus produced was treated with various concentrations of the derivative compounds.
as §1

| Structure (SMILES) | growth of Vibrio vulnificus (Vibrio vulnificus) | EC50 (HlyU; Compound Group II) | EC50 / HlyU inhibitory effect compared with CM2660 (in words) (HlyU) | EC50 (HlyU; Compound Group I) |
| --- | --- | --- | --- | --- |
| COC(=O)C#Cc1cccnc1 | inhibited the growth | 0.5 µM | lower EC50 values than CM2660 | – |
| O=C(O)C#Cc1ccccc1 | – | 1310 µM | – | – |
| Nc1scc2c1c(=O)oc1ccccc12 | inhibited the growth | – | lowest EC50 value and the highest HlyU inhibitory effect | 3.53 µM |
| C#CC(=O)Nc1scc2c1c(=O)oc1ccccc12 | inhibited the growth | 7.31 µM | lower EC50 values than CM2660 | – |
| COC(=O)/C=C/c1ccccc1 | – | 1790 µM | – | – |
| C[Si](C)(C)C#CC(=O)O | – | 1380 µM | – | – |
| CC(C)(C)C(=O)Nc1scc2c1c(=O)oc1ccccc12 | – | 71.6 µM | – | – |
| CC(C)(C)OC(=O)CNC(=O)C#Cc1ccccc1 | inhibited the growth | 3.26 µM | lower EC50 values than CM2660 | – |
| CC(C)(C)OC(=O)CNC(=O)C#Cc1ccc([N+](=O)[O-])cc1 | inhibited the growth | 2.29 µM | lower EC50 values than CM2660 | – |
| CCOC(=O)C#Cc1ccccc1 | inhibited the growth | 0.17 µM | lower EC50 values than CM2660 | – |
